CC50 data for one compound are collected here from publication PMC7245249 (Biomedical Journal, 2020).

The data set can be described thus: in vitro. As to conditions: human.

SMILES strings stand for the structures.

The compound `COc1ccc(C[C@H]2NC[C@H](O)[C@H]2OC(C)=O)cc1` [Anisomycin] had a CC50 of 22.8 ± 0.94 µM.
